Structure probing of HIV-1 leader RNA with DMS

Values reported by Ye et al. 2022 (doi:10.1038/s41594-022-00746-2).

Sequence of the HIV-1 NL4-3 5' RNA, positions 1 to 437, as numbered in the source:
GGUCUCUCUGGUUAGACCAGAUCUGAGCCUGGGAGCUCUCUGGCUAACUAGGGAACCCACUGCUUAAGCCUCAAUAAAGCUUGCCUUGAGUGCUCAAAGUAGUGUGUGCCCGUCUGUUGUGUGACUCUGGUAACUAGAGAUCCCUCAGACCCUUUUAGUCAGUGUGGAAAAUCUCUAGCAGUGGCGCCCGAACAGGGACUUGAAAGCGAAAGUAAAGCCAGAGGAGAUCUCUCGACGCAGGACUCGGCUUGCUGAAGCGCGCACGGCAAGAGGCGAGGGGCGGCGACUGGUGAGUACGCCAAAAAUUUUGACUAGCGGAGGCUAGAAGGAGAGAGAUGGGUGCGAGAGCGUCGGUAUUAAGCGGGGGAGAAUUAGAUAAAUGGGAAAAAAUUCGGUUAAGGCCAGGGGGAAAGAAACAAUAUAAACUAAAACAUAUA

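Mutant RNA libraries with 1G, 2G or 3G starts, with or without cap, were folded at 37 °C for 30 min. Monomer and dimer bands were cut from native gels after folding in high salt (300 mM KCl, 5 mM MgCl2) or low salt (40 mM KCl, 0.1 mM MgCl2). Gel slices were treated with 170 mM dimethyl sulfate for 15 min at 37 °C and read by mutational profiling against an ethanol control.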

Values are winsor-normalised DMS reactivities of A and C; higher means more reactive, usually unpaired. One numbering serves 1G, 2G and 3G. A position is written with its base.

* A404 = 1G uncapped low-salt dimer 0.23; 3G capped low-salt monomer 0.24; 2G uncapped low-salt dimer 0.31; 3G uncapped high-salt monomer 0.18
* A410 = 1G uncapped low-salt dimer 0.36; 3G capped low-salt monomer 0.42; 2G uncapped low-salt dimer 0.43; 3G uncapped high-salt monomer 0.46
* A411 = 1G uncapped low-salt dimer 0.80; 3G capped low-salt monomer 0.91; 2G uncapped low-salt dimer 0.87; 3G uncapped high-salt monomer 0.87
* A412 = 1G uncapped low-salt dimer 0.51; 3G capped low-salt monomer 0.52; 2G uncapped low-salt dimer 0.51; 3G uncapped high-salt monomer 0.52
* A414 = 1G uncapped low-salt dimer 0.48; 3G capped low-salt monomer 0.44; 2G uncapped low-salt dimer 0.52; 3G uncapped high-salt monomer 0.46
* A415 = 1G uncapped low-salt dimer 0.22; 3G capped low-salt monomer 0.18; 2G uncapped low-salt dimer 0.25; 3G uncapped high-salt monomer 0.24
* A416 = 1G uncapped low-salt dimer 0.42; 3G capped low-salt monomer 0.45; 2G uncapped low-salt dimer 0.48; 3G uncapped high-salt monomer 0.52
* C417 = 1G uncapped low-salt dimer 0.80; 3G capped low-salt monomer 0.85; 2G uncapped low-salt dimer 0.91; 3G uncapped high-salt monomer 0.87
* A418 = 1G uncapped low-salt dimer 0.62; 3G capped low-salt monomer 0.63; 2G uncapped low-salt dimer 0.67; 3G uncapped high-salt monomer 0.68
* A419 = 1G uncapped low-salt dimer 0.44; 3G capped low-salt monomer 0.48; 2G uncapped low-salt dimer 0.51; 3G uncapped high-salt monomer 0.48
* A421 = 1G uncapped low-salt dimer 0.38; 3G capped low-salt monomer 0.38; 2G uncapped low-salt dimer 0.38; 3G uncapped high-salt monomer 0.36
* A423 = 1G uncapped low-salt dimer 0.45; 3G capped low-salt monomer 0.38; 2G uncapped low-salt dimer 0.44; 3G uncapped high-salt monomer 0.42
* A424 = 1G uncapped low-salt dimer 0.37; 3G capped low-salt monomer 0.27; 2G uncapped low-salt dimer 0.37; 3G uncapped high-salt monomer 0.34
* A425 = 1G uncapped low-salt dimer 0.51; 3G capped low-salt monomer 0.49; 2G uncapped low-salt dimer 0.57; 3G uncapped high-salt monomer 0.52
* C426 = 1G uncapped low-salt dimer 0.73; 3G capped low-salt monomer 0.77; 2G uncapped low-salt dimer 0.84; 3G uncapped high-salt monomer 0.75
* A428 = 1G uncapped low-salt dimer 0.10; 3G capped low-salt monomer 0.11; 2G uncapped low-salt dimer 0.11; 3G uncapped high-salt monomer 0.11
* A429 = 1G uncapped low-salt dimer 0.70; 3G capped low-salt monomer 0.74; 2G uncapped low-salt dimer 0.76; 3G uncapped high-salt monomer 0.74
* A430 = 1G uncapped low-salt dimer 0.57; 3G capped low-salt monomer 0.50; 2G uncapped low-salt dimer 0.55; 3G uncapped high-salt monomer 0.55
* A431 = 1G uncapped low-salt dimer 0.64; 3G capped low-salt monomer 0.56; 2G uncapped low-salt dimer 0.63; 3G uncapped high-salt monomer 0.60
* C432 = 1G uncapped low-salt dimer 0.90; 3G capped low-salt monomer 0.89; 2G uncapped low-salt dimer 0.95; 3G uncapped high-salt monomer 0.89
* A433 = 1G uncapped low-salt dimer 0.70; 3G capped low-salt monomer 0.74; 2G uncapped low-salt dimer 0.76; 3G uncapped high-salt monomer 0.73
* A435 = 1G uncapped low-salt dimer 0.48; 3G capped low-salt monomer 0.50; 2G uncapped low-salt dimer 0.52; 3G uncapped high-salt monomer 0.50
* A437 = 1G uncapped low-salt dimer 0.03; 3G capped low-salt monomer 0.02; 2G uncapped low-salt dimer 0.04; 3G uncapped high-salt monomer 0.03

The first 2 entries again:

| position | domain | 1G uncapped low-salt dimer | 3G capped low-salt monomer | 2G uncapped low-salt dimer | 3G uncapped high-salt monomer |
|---|---|---|---|---|---|
| A404 | none | 0.23 | 0.24 | 0.31 | 0.18 |
| A410 | none | 0.36 | 0.42 | 0.43 | 0.46 |